The text below walks through data of PubChem BioAssay AID449762 (Southern Research Specialized Biocontainment Screening …, 2010).

Some of the results follow. Inconclusive results are not listed. Activity calls are given as the source filed them. Rule as the data show it: inconclusive = inhibition above about 70% without an active follow-up result; inactive = below that.

The assay can be described thus: M. tuberculosis growth inhibition, HTS (AID 449762).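 Also: bacterial growth assessed after seven days of incubation.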 Conditions: M. tuberculosis H37Rv growth inhibition, 7H9 media; at 25 µM; stronger effect = higher value.
`CP(=O)(Oc1ccccc1)OC(c1ccccc1)C(F)(F)F` (stereo not drawn): the inhibition (usually the relative decrease from the control value, in per cent) was inactive: -3.18%. As for `Cc1cccc(C)c1OP(C)(=O)Nc1ccc(SC(F)(F)F)cc1` (stereo not drawn), the inhibition is inactive: 6.68%. With `CP(=O)(Nc1ccc(SC(F)(F)F)cc1)Oc1ccc(Cl)cc1` (stereo not drawn), the inhibition was inactive: 5.56%.

In the case of `Cc1cc(C)cc(OP(C)(=O)Nc2ccc(SC(F)(F)F)cc2)c1` (stereo not drawn), the inhibition was inactive: 5%.

In the case of `CCc1ccc(OP(C)(=O)N2CCN(c3ccc([N+](=O)[O-])cc3)CC2)cc1` (stereo not drawn), the inhibition was inactive: 6.05%. The figure for `CP(=O)(NC(=O)Nc1ccccc1)Oc1ccccc1` (stereo not drawn) is inactive: 5.43%; for `CCOP(C)(=S)SCC(=O)NC(C)C(=O)O` (stereo not drawn) it is inactive: -3.29%. The figure for `CCOC(=O)c1ccc(NP(C)(=O)Oc2ccc(OC)cc2)cc1` (stereo not drawn) is inactive: -4.52%. The figure for `O=[N+]([O-])c1cc([N+](=O)[O-])c(O)c([N+](=O)[O-])c1.c1ccc(Oc2ccncc2)cc1` is inactive: 4.11%; for `CP(=O)(Nc1ccccn1)Oc1ccc(Cl)cc1` (stereo not drawn) it is inactive: 2.21%. With `CP(=S)(Nn1cnnc1)Oc1ccccc1` (stereo not drawn), the inhibition is inactive: -2.36%. To `COc1ccccc1OP(C)(=O)Nc1ccccc1` (stereo not drawn) belongs inactive: -0.96%. The figure for `CP(=O)(Nc1ccccc1Br)Oc1ccccc1` (stereo not drawn) is inactive: -1.59%. The figure for `O=[N+]([O-])c1cc([N+](=O)[O-])c(Nc2cccnc2)c([N+](=O)[O-])c1` is inactive: -0.94%; for `Cc1cccc(C)c1OP(C)(N)=O` (stereo not drawn) it is inactive: -6.38%; for `CC(C)(C)c1ccc(OP(C)(=O)Nc2ccc(SC(F)(F)F)cc2)cc1` (stereo not drawn) it is inactive: 10.7%. Consider `O=[N+]([O-])c1ccc2c(c1)C=Nc1ccccc1O2`, for which the inhibition is inactive: -0.09%.

Regarding `CCOC(=O)c1ccc(NP(C)(=O)Oc2ccccc2)cc1` (stereo not drawn), the inhibition is inactive: 4.66%.

With `Cc1ccc(NP(C)(=O)Oc2ccccc2)c(C)c1` (stereo not drawn), the inhibition is inactive: -3.5%. To `COc1ccccc1OP(C)(=O)Nc1ccc(C)cc1` (stereo not drawn) belongs inactive: -4.48%; to `COc1ccc(OP(C)(=O)Nc2cccc(F)c2)cc1` (stereo not drawn), inactive: -0.69%; to `COc1ccccc1OP(C)(=O)Nc1cc(Cl)ccc1C` (stereo not drawn), inactive: 2.49%.

In the case of `Cc1cc(C)cc(OP(C)(N)=O)c1` (stereo not drawn), the inhibition is inactive: 11.3%. To `CCN(CC)CCCOC(=O)C(O)(c1ccccc1)c1ccccc1` belongs inactive: -7.32%. With `COc1ccccc1OP(C)(=O)Nc1cccc(Br)c1` (stereo not drawn), the inhibition is inactive: 7.44%. Regarding `Cc1cc(C)cc(OP(C)(=O)Nc2ccc(C)cc2C)c1` (stereo not drawn), the inhibition was inactive: -3.72%. To `CCOC(=O)c1ccc(NP(C)(=O)Oc2cc(C)cc(C)c2)cc1` (stereo not drawn) belongs inactive: -5.73%. The figure for `CP(=O)(Nc1cccc(Br)c1)Oc1ccccc1` (stereo not drawn) is inactive: 3.19%; for `Cc1cc(C)cc(OP(C)(=O)Nc2ccccn2)c1` (stereo not drawn) it is inactive: 0.42%. To `Cc1ccc(C)c(NP(C)(=O)Oc2ccccc2)c1` (stereo not drawn) belongs inactive: 3.01%.

For `O=C(O)c1cccc(Nc2c([N+](=O)[O-])cc([N+](=O)[O-])cc2[N+](=O)[O-])c1`, the inhibition is inactive: 10.5%. On to `CC1=NCCc2c1[nH]c1ccccc21.O=[N+]([O-])c1cc([N+](=O)[O-])c(O)c([N+](=O)[O-])c1`, for which the inhibition was inactive: 3.79%. Consider `CCOC(=O)C(CC)C1=NC(C)(C)Cc2ccccc21.O=[N+]([O-])c1cc([N+](=O)[O-])c(O)c([N+](=O)[O-])c1` (stereo not drawn), for which the inhibition is inactive: 4.93%. The figure for `O=[N+]([O-])c1cc([N+](=O)[O-])c(Nc2nnnn2CCO)c([N+](=O)[O-])c1` is inactive: -1.18%; for `CC1=C2N=C(C=C3N=C(C(C)=C4[N-][C@@](C)([C@@H]5N=C1[C@](C)(CCC(=O)NC[C@@H](C)OP(=O)([O-])O[C@H]1[C@@H](O)[C@@H](n6cnc7cc(C)c(C)cc76)O[C@@H]1CO)[C@H]5CC(N)=O)[C@@](C)(CC(N)=O)[C@@H]4CCC(N)=O)[C@@](C)(CC(N)=O)[C@@H]3CCC(N)=O)C(C)(C)[C@@H]2CCC(N)=O.[C-]#N.[Co+3]` it is inactive: -0.51%. With `COc1ccccc1OP(C)(=O)Nc1c(C)cccc1C` (stereo not drawn), the inhibition was inactive: -8.36%.

Regarding `CN1CCCCC1COC(=O)C1(O)c2ccccc2CCc2ccccc21` (stereo not drawn), the inhibition is inactive: 2.22%. To `CP(=O)(Nc1ccc(SC(F)(F)F)cc1)Oc1ccccc1` (stereo not drawn) belongs inactive: 15.3%; to `CCCOc1ccc(NP(C)(=O)Oc2ccc(Cl)cc2)cc1` (stereo not drawn), inactive: 62.7%. Consider `O=[N+]([O-])c1cc([N+](=O)[O-])c(-n2nnc3ccccc32)c([N+](=O)[O-])c1`, for which the inhibition is inactive: 1.44%.

Take `Cc1nc2ccc3ccccc3c2s1.O=[N+]([O-])c1cc([N+](=O)[O-])c(O)c([N+](=O)[O-])c1`: the inhibition is inactive: 2.1%. The figure for `CP(=O)(Nc1ccc(SC(F)(F)F)cc1)Oc1ccc(F)cc1` (stereo not drawn) is inactive: 61.5%; for `CCOP(C)(=S)SCC(=O)NC(C)(CC)C(=O)O` (stereo not drawn) it is inactive: -12.4%. As for `CP(=O)(Nc1ccc2c(c1)OCCO2)Oc1ccccc1` (stereo not drawn), the inhibition was inactive: 5.97%. The figure for `Cc1ccccc1NP(C)(=O)Nc1ccccc1C` is inactive: 8.11%; for `COc1ccc(OP(C)(=O)Nc2cccc(Br)c2)cc1` (stereo not drawn) it is inactive: 4.04%. In the case of `COc1ccc(NP(C)(=O)Oc2ccccc2OC)cc1` (stereo not drawn), the inhibition is inactive: -4.6%. To `CN(C)CCOC(=O)C(O)(c1ccccc1)C1CCCCC1` (stereo not drawn) belongs inactive: -3.21%. To `O=[N+]([O-])c1cc([N+](=O)[O-])c(NCC2CCS(=O)(=O)C2)c([N+](=O)[O-])c1` (stereo not drawn) belongs inactive: 16.3%. To `O=[N+]([O-])c1ccc(OP2(=O)COCCO2)cc1` (stereo not drawn) belongs inactive: 1.72%; to `COc1ccc(OP(C)(=O)Nc2ccc(SC(F)(F)F)cc2)cc1` (stereo not drawn), inactive: 7.83%; to `CCOC(=O)c1ccc(NP(C)(=O)Oc2ccc(F)cc2)cc1` (stereo not drawn), inactive: 4.14%. Take `CCN(CC)CCCOC(=O)C(O)(c1ccccc1)C1CCCCC1` (stereo not drawn): the inhibition was inactive: 0.35%. To `O=[N+]([O-])c1cc([N+](=O)[O-])c(OC2CCCCC2O)c([N+](=O)[O-])c1` (stereo not drawn) belongs inactive: 0.74%; to `CP(=O)(Nc1ccccc1)Oc1ccc(F)cc1` (stereo not drawn), inactive: 0.28%. To `CC(C)c1ccc(OP(C)(=O)Nc2ccc(SC(F)(F)F)cc2)cc1` (stereo not drawn) belongs inactive: 17.5%. The figure for `CP(=O)(Nc1ccccc1F)Oc1ccccc1` (stereo not drawn) is inactive: -7.38%.

On to `O=C(OCCN1CCN(CCOCc2ccccc2)CC1)C(O)(c1ccccc1)c1ccccc1`, for which the inhibition was inactive: -1.7%.
